Results published in patent publication US7666997 (Dana-Farber, dated 2010).

Target: SV40 large T antigen (SV40, UniProt P03070 1-708)

B1: HA-tagged NBS-1α (other, not shown: small tags and cut ends)
chain: MAQSTATSPDGGTTFEHLWSSLEPDSTYFDLPQSSRGNNEVVGGTDSSMDVFHLEGMTTSVMAQFNLLSSTMDQMSSRAASASPYTPEHAASVPTHSPYAQPSSTFDTMSPAPVIPSNTDYPGPHHFEVTFQQSSTAKSATWTYSPLLKKLYCQIAKTCPIQIKVSTPPPPGTAIRAMPVYKKAEHVTDVVKRCPNHELGRDFNEGQSAPASHLIRVEGNNLSQYVDDPVTGRQSVVVPYEPPQVGTEFTTILYNFMCNSSCVGGMNRRPILIIITLEMRDGQVLGRRSFEGRICACPGRDRKADEDHYREQQALNESSAKNGAASKRAFKQSPPAVPALGAGVKKRRHGDEDTYYLQVRGRENFEILMKLKESLELMELVPQPLVDSYRQQQQLLQRPSHLQPPSYGPVLSPMNKVHGGMNKLPSVNQLVGQPPPHSSAATPNLGPVGPGMLNNHGHAVPANGEMSSSHSAQSMVSGSHCTPPPPYHADPSLVSFLTGLGCPNCIEYFTSQGLQSIYHLQNLTIEDLGALKIPEQYRMTIWRGLQDLKQGHDYSTAQQLLRSSNAATISIGGSGELQRQRVMEAVHFRVRHTITIPNRGGPGGGPDEWADFGFDLPDCKARKQPIKEEFTEAEIH
  binding result: no binding
